Results on 1 molecule are retold here after patent US20230220054A1 (published 2023).

This test deals with SARS-CoV-2 S1 RBD (SARS-CoV-2, UniProt P0DTC2 319-541). Put plainly: BLI kinetics. On the technique in general: Biolayer interferometry detects binding as a change in optical thickness at a sensor tip.

B1: 1B-Fc (monoclonal VHH-Fc of Covid19-1B6) (antibody, V domains shown)
VH: EVQLVESGGGLVQPGGSLRLSCAASGSIFGINVMAWYRQAPGKGLEWISTIYNDASNTDYADSVKGRFTVSRDNSKNTLYLQMNSLRAEDTAKYYCFAESMRQWWGQGNQVTVSS
Regarding B1, the Kd – broadly, the constant that tells how readily two partners part at equilibrium – turned out to be 1.64 nM.
